Pooled drug test results. Numbers come from NIAID ChemDB, via PubChem.

Shared fields: toxicity to cultured cells; cell line: PBMC; read-out: CC50

An empty or dashed field is not shown. CCn is the concentration with n% toxicity to the cells. Lines come from different laboratories, so protocols vary.

CCOP(=O)(CO[C@H]1C[C@@H](n2cnc3c(Cl)nc(N)nc32)C(F)(F)C1)OCC ; result: >100 µM
Cc1cc(C)nc(Cn2c(=O)ccn(Cc3ccccc3)c2=O)c1 ; result: >389 µM
CCOP(=O)(OCC)C(F)(F)C[C@@]1(F)CO[C@@H](n2cnc3c(N)ncnc32)C1 ; result: 95 µM
Nc1nc(=O)n([C@@H]2O[C@H](CO)C=C2F)cc1F ; result: >100 µM
NCCN1CCNCc2ccc3ccc4ccc(nc4c3n2)CNCC1 ; result: >100 µM
CNC(=O)[C@@H](Cc1c[nH]c2ccccc12)NC(=O)OC[C@H]1O[C@@H](n2cc(C)c(=O)[nH]c2=O)C[C@@H]1N=[N+]=[N-] ; result: >100 µM
N#CCn1ccc(=O)n(Cc2cc(F)cc(F)c2)c1=O ; result: >451 µM
COC(=O)[C@H](Cc1ccccc1)NP(=O)(O)OC[C@H]1O[C@@H](n2cc(C)c(=O)[nH]c2=O)C[C@@H]1N=[N+]=[N-] ; result: >100 µM
COC(=O)c1cccc(Cn2ccc3ccc(-c4ccc5ccn(Cc6cccc(C(=O)O)c6)c5c4)cc32)c1 ; read by: MTS ; result: 11.6 µM
Cc1cc(C)c(Cn2c(=O)ccn(CC#N)c2=O)c(C)c1 ; result: >441 µM
CC(C)(C)C(=O)SCCOP(=O)(OCCSC(=O)C(C)(C)C)C(F)(F)C[C@@]1(F)CO[C@@H](n2cnc3c(N)ncnc32)C1 ; result: 80 µM
CC(C)[C@H](N)C(=O)O.[Na+] ; read by: MTT ; result: 70.67 µM
Cc1cc(C)cc(Cn2c(=O)ccn(Cc3c(F)cccc3F)c2=O)c1 ; result: 326 µM
CC[C@H](C)[C@H]1NC(=O)[C@@H](NC(=O)OC(C)(C)C)[C@@H](C)OC(=O)[C@H](Cc2ccc(OC)cc2)N(C)C(=O)[C@@H]2CCCN2C(=O)[C@H](CC(C)C)NC(=O)C(C)(C)NC(=O)C[C@@H]1O ; read by: MTT ; result: >59.17 µM
Cc1cc(SC2=C(O)C[C@@](CCc3ccc(O)cc3)(C(C)C)OC2=O)c(C(C)(C)C)cc1N ; result: >100 µM
Cc1cn([C@H]2C[C@H](N=[N+]=[N-])[C@@H](CO)O2)c(=O)[nH]c1=O ; read by: MTT ; result: >5 µM
CC(C)C[C@H](N)C(=O)O.[Na+] ; read by: MTT ; result: 68.12 µM
CCC1=C(CC)c2cc3[n-]c(cc4[n-]c(cc5nc(cc1n2)C(CC)=C5CC)c(CC)c4CC)c(CC)c3CC.[O]=[V+2] ; read by: MTT ; result: >50 µM
CC[C@H](C)[C@H]1NC(=O)[C@@H](NC(=O)[C@@H](C)NC)[C@@H](C)OC(=O)[C@H](Cc2ccc(OC)cc2)N(C)C(=O)[C@@H]2CCCN2C(=O)[C@H](CC(C)C)NC(=O)[C@@H](C)C(=O)[C@H](C(C)C)OC(=O)C[C@@H]1O ; read by: MTT ; result: >55.49 µM
Nc1ncnc2c1ncn2[C@@H]1C[C@H](OCP(=O)(O)O)CC1(F)F ; result: >100 µM
Cc1cccc(C)c1Cn1c(=O)ccn(CC#N)c1=O ; result: >464 µM
CC(C)(C)NC(=O)[C@@H]1C[C@@H]2CCCC[C@@H]2CN1C[C@@H](O)[C@H](Cc1ccccc1)NC(=O)[C@H](CC(N)=O)NC(=O)c1ccc2ccccc2n1 ; result: 78 µM
CC[C@H](C)[C@H]1NC(=O)[C@@H](NC(=O)[C@@H](CC(C)C)N(C)S(=O)(=O)c2ccc(C)cc2)[C@@H](C)OC(=O)[C@H](Cc2ccc(OC)cc2)N(C)C(=O)[C@@H]2CCCN2C(=O)[C@H](CC(C)C)NC(=O)[C@H](C(C)C)OC(=O)C[C@@H]1O ; read by: MTT ; result: >48.02 µM
Nc1nc2c(ncn2[C@@H]2C[C@H](OCP(=O)(O)O)CC2(F)F)c(=O)[nH]1 ; result: >100 µM
CC[C@@]1(O)C(=O)OCc2c1cc1n(c2=O)Cc2cc3cc(O)ccc3nc2-1 ; read by: MTT ; result: 0.0363 µg/mL
Nc1nc(N)c2ncn([C@H]3CO[C@@H](CO)O3)c2n1 ; result: >1000 µM
Cc1ccc(Cn2c(=O)ccn(CC#N)c2=O)cc1 ; result: >490 µM
Cc1cn([C@H]2C[C@H](N=[N+]=[N-])[C@@H](CO)O2)c(=O)[nH]c1=O ; result: >100 µM
Cc1cn([C@H]2C[C@@](F)(CC(F)(F)P(=O)(O)O)CO2)c(=O)[nH]c1=O ; result: >100 µM
COC(=O)[C@H](Cc1ccccc1)NC(=O)OC[C@H]1O[C@@H](n2cc(C)c(=O)[nH]c2=O)C[C@@H]1N=[N+]=[N-] ; result: >100 µM
CCOP(=O)(OCC)C(F)(F)C[C@@]1(F)CO[C@@H](n2ccc(N)nc2=O)C1 ; result: >100 µM
c1cc2ccc3ccc4nc3c2nc1CNCCNCCNC4 ; result: >100 µM
CC[C@H](C)[C@H]1NC(=O)[C@@H](NC(=O)[C@H](CC(C)C)N(C)C(=O)[C@@H]2CCCN2C(=O)C(C)=O)[C@@H](C)OC(=O)[C@H](Cc2ccc(OC)cc2)N(C)C(=O)[C@@H]2CCCN2C(=O)[C@H](CC(C)C)NC(=O)[C@@H](C)C(=O)[C@H](C(C)C)OC(=O)C[C@@H]1O ; read by: MTT ; result: 15.23 µM
Nc1ncnc2c1ncn2[C@@H]1O[C@H](CO)C=C1F ; result: 68.3 µM
CC1=CC2=C(C(C)C)C(O)C(=O)/C(=C\N[C@H](C)C(=O)O)C2C(O)=C1c1c(C)cc2c(C(C)C)c(O)c(O)c(C=N[C@@H](C)C(=O)O)c2c1O.[Na+].[Na+] ; read by: MTT ; result: 95.08 µM
Cc1cn([C@H]2C[C@H](N=[N+]=[N-])[C@@H](CO)O2)c(=O)[nH]c1=O ; result: >0.25 µM
Cc1cn([C@H]2C[C@H](N=[N+]=[N-])[C@@H](CO)O2)c(=O)[nH]c1=O ; result: >100 µM
C[C@H](N)C(=O)O.[Na+] ; read by: MTT ; result: 95.08 µM

5 of the rows above, restated:

structure	read by	result
Cc1cc(C)nc(Cn2c(=O)ccn(Cc3ccccc3)c2=O)c1	-	>389 µM
COC(=O)c1cccc(Cn2ccc3ccc(-c4ccc5ccn(Cc6cccc(C(=O)O)c6)c5c4)cc32)c1	MTS	11.6 µM
CC(C)[C@H](N)C(=O)O.[Na+]	MTT	70.67 µM
Cc1cn([C@H]2C[C@H](N=[N+]=[N-])[C@@H](CO)O2)c(=O)[nH]c1=O	-	>100 µM
Cc1cn([C@H]2C[C@@](F)(CC(F)(F)P(=O)(O)O)CO2)c(=O)[nH]c1=O	-	>100 µM